Laboratory results reported in patent publication US20020061896A1, “Imidazopyrimidine nucleoside analogues with anti-HIV activity” (priority 1999, published 2002).

System: HIV
Assay: Antiviral activity using T cells
Type: cell-based
Details: CC50/IC50
Procedure: HIV-1 infection assays with cell lines.
Laboratory strains of HIV-1, HIV-2, simian immunodeficiency virus, strains with know resistance to indicated drugs, or a low-passage (clinically derived) isolates are used to infect established cell lines by using a specific multiplicity of infection (MOI) of the virus for 1 hour at 37° C. prior to washing the cells and resuspension in medium containing increasing concentrations of drug (or test compound). At 4 to 6 days post-infection, drug-treated and control wells are analyzed for an HIV-1 induced cytopathic effect and/or for the presence of viral reverse transcriptase (RT) or viral p24 antigen in the culture medium (Buckheit and Swanstrom 1991; Ojwang et al. 1994, 1995a, Rando et al. 1995).

SMILES | SI (HIV)
O=c1n([C@H]2CO[C@@H](CO)O2)ccc2nc(-c3ccc(F)cc3)cn12 [Compound 44, 2-(4-FLUOROPHENYL)-6-[(2R,4R)-2- HYDROXYMETHYL-1,3-DIOXOLAN-4-YL]- 5,6-DIHYDRO[1,3]DIAZOLO[1,2- C][1,3]DIAZIN-5-ONE] | >31250
O=c1n(C2CO[C@H](CO)O2)ccc2nc(-c3ccc(F)cc3)cn12 (stereo in doubt) [Compound 43, 2-(4-FLUOROPHENYL)-6-[(2S,4S)-2- HYDROXYMETHYL-1,3-DIOXOLAN-4-YL]- 5,6-DIHYDRO[1,3]DIAZOLO[1,2- C][1,3]DIAZIN-5-ONE] | >322
O=c1n([C@H]2CC[C@@H](CO)O2)ccc2nc(-c3ccc([N+](=O)[O-])cc3)cn12 [Compound 32, 2-(4- NITROPHENYL)-6-[(2R,5S)-5- HYDROXYMETHYLOXOLAN-2-YL]-5,6- DIHYDRO[1,3]-DIAZOLO[1,2-C][1,3]DIAZIN-5-ONE] | >14
O=c1n([C@@H]2CC[C@H](CO)O2)ccc2nc(-c3ccc([N+](=O)[O-])cc3)cn12 [Compound 31, 6-[(2S,5R)-5-HYDROXYMETHYL OXOLAN-2-YL]-2-(4-NITROPHENYL)-5,6- DIHYDRO[1,3]-DIAZOLO[1,2-C][1,3]DIAZIN-5-ONE] | 4.6
O=c1n([C@@H]2CO[C@@H](CO)O2)cc(F)c2nc(-c3ccc([N+](=O)[O-])cc3)cn12 [Compound 58] | >1.6
O=c1n([C@H]2CC[C@@H](CO)O2)cc(F)c2nc(-c3ccc([N+](=O)[O-])cc3)cn12 [Compound 36, 8-FLUORO-2-(4-NITROPHENYL)-6- [(2R,5S)-5-HYDROXYMETHYL OXOLAN- 2-YL]-5,6-DIHYDRO[1,3]-DIAZOLO[1,2- C][1,3]DIAZIN-5-ONE] | >100
O=c1n([C@@H]2CO[C@H](CO)O2)ccc2nc(-c3ccc([N+](=O)[O-])cc3)cn12 [Compound 45, L2-(4-NITROPHENYL)-6-[(2S,4S)-2- HYDROXYMETHYL-1,3-DIOXOLAN-4-YL]- 5,6-DIHYDRO[1,3]DIAZOLO[1,2- C][1,3]DIAZIN-5-ONE] | 40
O=c1n([C@H]2CO[C@@H](CO)O2)ccc2nc(-c3ccc([N+](=O)[O-])cc3)cn12 [Compound 46, 2-(4-NITROPHENYL)-6-[(2R,4R)-2- HYDROXYMETHYL-1,3-DIOXOLAN-4-YL]- 5,6-DIHYDRO[1,3]DIAZOLO[1,2- C][1,3]DIAZIN-5-ONE] | >1000
O=c1n([C@H]2CO[C@H](CO)O2)cc(F)c2nc(-c3ccc(F)cc3)cn12 [Compound 55] | >2.1
O=c1n([C@@H]2CC[C@H](CO)O2)cc(F)c2nc(-c3ccc(F)cc3)cn12 [Compound 33, 8-FLUORO-2-(4-FLUOROPHENYL)-6- [(5R,2S)-5-HYDROXYMETHYL OXOLAN- 2-YL]-5,6-DIHYDRO[1,3]DIAZOLO[1,2- C][1,3]DIAZIN-5-ONE] | 22.5
O=c1n([C@H]2CO[C@H](CO)O2)ccc2nc(-c3ccc([N+](=O)[O-])cc3)cn12 [Compound 53] | >25
